Pooled drug test results. Numbers come from NIAID ChemDB, via PubChem.

Shared fields: whole-cell or culture tests; agent: Streptococcus pneumoniae; measure: MIC

Neighbouring rows are from separate reports.

| structure | strain or isolate | value |
|---|---|---|
| C=C1COC2[C@@H](C)C(=NC(C)=O)[C@H](C)C[C@@](C)(OC1)[C@H](O[C@@H]1O[C@H](C)C[C@H](N(C)C)[C@H]1O)[C@@H](C)C(=O)[C@@H](C)C(=O)O[C@H](CC)[C@@]2(C)O | 700906 (erythromycin-resistant-ERM) | >64 µg/mL |
| CC[C@H]1OC(=O)[C@H](C)C(=O)[C@H](C)[C@@H](O[C@@H]2O[C@H](C)C[C@H](N(C)C)[C@H]2O)[C@@]2(C)C[C@@H](C)C(=NC(C)=O)[C@H](C)C(OC/C(=C\C=C\c3ccc(OC)cc3)CO2)[C@]1(C)O | 700906 (erythromycin-resistant-ERM) | 1 µg/mL |
| C=CCn1cc(-c2ccc(N3C[C@H](CNC(C)=O)OC3=O)cc2F)cn1 | UC9912 | 0.5 µg/mL |
| CC[C@H]1OC(=O)[C@@](C)(F)C(=O)[C@H](C)[C@@H](O[C@@H]2O[C@H](C)C[C@H](N(C)C)[C@H]2O)[C@@]2(C)C[C@@H](C)C(=NC(C)=O)[C@H](C)[C@@H](OC/C(=N\OCc3ccc4cnn(C(N)=O)c4c3)CO2)[C@]1(C)O | 49619 (erythromycin A-susceptible) | <0.06 µg/mL |
| O=C(Nc1cccc(C2=NCCN2)c1)Nc1cccc(C2=NCCN2)c1 | STP6301 | 60 µM |
| NC1CCN(c2c(F)cc3c(=O)c(C(=O)O)cn(C4CC4)c3c2Cl)C1 | R6-C11 | 0.06 µg/mL |
| CC[C@H]1OC(=O)[C@@](C)(F)C(=O)[C@H](C)[C@@H](O[C@@H]2O[C@H](C)C[C@H](N(C)C)[C@H]2O)[C@@]2(C)C[C@@H](C)C(=NC(C)=O)[C@H](C)[C@@H](OC/C(=N\OCc3cccc(C(N)=O)c3)CO2)[C@]1(C)O | 7701 (erythromycin A-resistant) | 0.5 µg/mL |
| CC(=O)NC[C@H]1CN(c2ccc(-c3cnn(C(C)=O)c3)c(F)c2)C(=O)O1 | UC9912 | 0.5 µg/mL |
| CC[C@H]1OC(=O)[C@H](C)C(=O)[C@H](C)[C@@H](O[C@@H]2O[C@H](C)C[C@H](N(C)C)[C@H]2O)[C@@]2(C)C[C@@H](C)C(=NC(C)=O)[C@H](C)C(OC/C(=C\C#Cc3ccc(N)nc3)CO2)[C@]1(C)O | 49619 (erythromycin-susceptible) | <0.06 µg/mL |
| CC[C@H]1OC(=O)[C@H](C)C(=O)[C@H](C)[C@@H](O[C@@H]2O[C@H](C)C[C@H](N(C)C)[C@H]2O)[C@@]2(C)C[C@@H](C)C(=NC(C)=O)[C@H](C)[C@@H](OC/C(=N\Oc3ccccc3)CO2)[C@]1(C)O | 700906 (erythromycin-resistant-ERM) | 0.5 µg/mL |
| CC[C@H]1OC(=O)[C@H](C)C(=O)[C@H](C)[C@@H](O[C@@H]2O[C@H](C)C[C@H](N(C)C)[C@H]2O)[C@@]2(C)C[C@@H](C)C(=NC(C)=O)[C@H](C)C(OC/C(=C\c3cnc4ccccc4c3)CO2)[C@]1(C)O | 7701 (erythromycin-resistant-MEF) | 0.25 µg/mL |
| CC[C@H]1OC(=O)[C@@](C)(F)C(=O)[C@H](C)[C@@H](O[C@@H]2O[C@H](C)C[C@H](N(C)C)[C@H]2O)[C@@]2(C)C[C@@H](C)C(=NC(C)=O)[C@H](C)[C@@H](OC/C(=N\OCc3ccc(-c4cccc(N)n4)s3)CO2)[C@]1(C)O | 49619 (erythromycin A-susceptible) | <0.06 µg/mL |
| COc1c(N2CCNC(C)C2)ccc2c(=O)c(C(=O)O)cn(C3CC3)c12 | R6 | 4 µg/mL |
| C=C1COC2[C@@H](C)C(=NC(C)=O)[C@H](C)C[C@@](C)(OC1)[C@H](O[C@@H]1O[C@H](C)C[C@H](N(C)C)[C@H]1O)[C@@H](C)C(=O)[C@@H](C)C(=O)O[C@H](CC)[C@@]2(C)O | 49619 (erythromycin-susceptible) | 0.25 µg/mL |
| CC(=O)NC[C@H]1CN(c2ccc(-c3ccn(C(C)=O)n3)c(F)c2)C(=O)O1 | UC9912 | 1 µg/mL |
| CC[C@H]1OC(=O)[C@H](C)C(=O)[C@H](C)[C@@H](O[C@@H]2O[C@H](C)C[C@H](N(C)C)[C@H]2O)[C@@]2(C)C[C@@H](C)C(=NC(C)=O)[C@H](C)C(OC/C(=C\C=C\c3cccnc3)CO2)[C@]1(C)O | 49619 (erythromycin-susceptible) | <0.06 µg/mL |
| CC(=O)NC[C@H]1CN(c2ccc(-c3ccn(CC#N)n3)c(F)c2)C(=O)O1 | UC9912 | ≤0.5 µg/mL |
| CC[C@H]1OC(=O)[C@H](C)C(=O)[C@H](C)[C@@H](O[C@@H]2O[C@H](C)C[C@H](N(C)C)[C@H]2O)[C@](C)(OC)C[C@@H](C)C(=O)[C@H](C)[C@H]2N(CCCCn3cnc(-c4cccnc4)c3)C(=O)O[C@]12C | 700906 (erythromycin A-resistant) | 0.25 µg/mL |
| CC[C@H]1OC(=O)[C@H](C)C(=O)[C@H](C)[C@@H](O[C@@H]2O[C@H](C)C[C@H](N(C)C)[C@H]2O)[C@](C)(OC)C[C@@H](C)C(=O)[C@H](C)[C@H]2N(CCCCn3cnc(-c4cccnc4)c3)C(=O)O[C@]12C | 49619 (erythromycin-susceptible) | 0.015 µg/mL |
| CN1CCN(c2cc3c(cc2F)c(=O)c(C(=O)O)cn3C2CC2)CC1 | R6-C11 | 2 µg/mL |
| CC[C@H]1OC(=O)[C@@](C)(F)C(=O)[C@H](C)[C@@H](O[C@@H]2O[C@H](C)C[C@H](N(C)C)[C@H]2O)[C@@]2(C)C[C@@H](C)C(=NC(C)=O)[C@H](C)[C@@H](OC/C(=N\OCc3ccc(-c4csnn4)nc3)CO2)[C@]1(C)O | 49619 (erythromycin A-susceptible) | <0.06 µg/mL |
| CC[C@H]1OC(=O)[C@H](C)C(=O)[C@H](C)[C@@H](O[C@@H]2O[C@H](C)C[C@H](N(C)C)[C@H]2O)[C@@]2(C)C[C@@H](C)C(=NC(C)=O)[C@H](C)[C@@H](OC/C(=N\OCC#Cc3ccc(N)nc3)CO2)[C@]1(C)O | 700906 (erythromycin-resistant-ERM) | <0.06 µg/mL |
| CC[C@H]1OC(=O)[C@H](C)C(=O)[C@H](C)[C@@H](O[C@@H]2O[C@H](C)C[C@H](N(C)C)[C@H]2O)[C@@]2(C)C[C@@H](C)C(=NC(C)=O)[C@H](C)C(OC/C(=C\C=C\c3cccc([N+](=O)[O-])c3)CO2)[C@]1(C)O | 49619 (erythromycin-susceptible) | <0.06 µg/mL |
| CC[C@H]1OC(=O)[C@@](C)(F)C(=O)[C@H](C)[C@@H](O[C@@H]2O[C@H](C)C[C@H](N(C)C)[C@H]2O)[C@@]2(C)C[C@@H](C)C(=NC(C)=O)[C@H](C)[C@@H](OC/C(=N\OCc3ccc(-c4ncccn4)s3)CO2)[C@]1(C)O | 7701 (erythromycin A-resistant) | <0.06 µg/mL |
| O=C(NCCO)NNC(=O)Nc1cc(C(F)(F)F)cc(C(F)(F)F)c1 | STP51 (penicillin-resistant) | >300 µM |
| CC[C@H]1OC(=O)[C@H](C)[C@@H](O[C@H]2C[C@@](C)(OC)[C@@H](O)[C@H](C)O2)[C@H](C)[C@@H](O[C@H]2O[C@@H](C)C[C@@H](N(C)C)[C@@H]2O)[C@](C)(O)C[C@@H](C)C(=O)[C@H](C)[C@@H](O)[C@]1(C)O | 700906 (erythromycin-resistant-ERM) | >64 µg/mL |
| CC[C@H]1OC(=O)[C@H](C)C(=O)[C@H](C)[C@@H](O[C@@H]2O[C@H](C)C[C@H](N(C)C)[C@H]2O)[C@@]2(C)C[C@@H](C)C(=NC(C)=O)[C@H](C)C(OC/C(=C\C=C\c3ccc(F)cc3)CO2)[C@]1(C)O | 7701 (erythromycin-resistant-MEF) | 0.5 µg/mL |
| CC[C@H]1OC(=O)[C@H](C)C(=O)[C@H](C)[C@@H](O[C@@H]2O[C@H](C)C[C@H](N(C)C)[C@H]2O)[C@@]2(C)C[C@@H](C)C(=NC(C)=O)[C@H](C)[C@@H](OC/C(=N\Oc3ccc(-c4cnccn4)s3)CO2)[C@]1(C)O | 7701 (erythromycin-resistant-MEF) | <0.06 µg/mL |
| CC[C@H]1OC(=O)[C@H](C)C(=O)[C@H](C)[C@@H](O[C@@H]2O[C@H](C)C[C@H](N(C)C)[C@H]2O)[C@@]2(C)C[C@@H](C)C(=NC(C)=O)[C@H](C)[C@@H](OC/C(=N\OCc3ccc(C(N)=O)s3)CO2)[C@]1(C)O | 49619 (erythromycin A-susceptible) | <0.06 µg/mL |
| COc1c(N2C[C@@H]3CCCN[C@@H]3C2)ccc2c(=O)c(C(=O)O)cn(C3CC3)c12 | R6 | 0.5 µg/mL |
| CC[C@H]1OC(=O)[C@H](C)C(=O)[C@H](C)[C@@H](O[C@@H]2O[C@H](C)C[C@H](N(C)C)[C@H]2O)[C@@]2(C)C[C@@H](C)C(=NC(C)=O)[C@H](C)[C@@H](OC/C(=N\OCc3ccc(C(N)=O)cc3)CO2)[C@]1(C)O | 700906 (erythromycin-resistant-ERM) | 0.25 µg/mL |
| O=C(NNc1ccccn1)Nc1cc(C(F)(F)F)cc(C(F)(F)F)c1 | STP51 (penicillin-resistant) | >300 µM |
| O=C(O)c1cn(C2CC2)c2cc(N3CCNCC3)ccc2c1=O | D-1687 | 64 µg/mL |
| O=C(NNC(=O)NC1CCCCC1)Nc1cc(C(F)(F)F)cc(C(F)(F)F)c1 | STP51 (penicillin-resistant) | 50 µM |
| CC[C@H]1OC(=O)[C@H](C)C(=O)[C@H](C)[C@@H](O[C@@H]2O[C@H](C)C[C@H](N(C)C)[C@H]2O)[C@@]2(C)C[C@@H](C)C(=NC(C)=O)[C@H](C)C(OC/C=C/CO2)[C@]1(C)O | 700906 (erythromycin-resistant-ERM) | >64 µg/mL |
| CC(=O)NC[C@H]1CN(c2ccc(-c3cnn(Cc4ccccc4)c3)c(F)c2)C(=O)O1 | UC9912 | 2 µg/mL |
| O=C(CC(=O)Nc1cc(C(F)(F)F)cc(C(F)(F)F)c1)Nc1cccc(C2=NCCN2)c1 | STP6301 | 106 µM |

A second listing of 5 rows from above:

{"structure": "C=CCn1cc(-c2ccc(N3C[C@H](CNC(C)=O)OC3=O)cc2F)cn1", "strain or isolate": "UC9912", "value": "0.5 µg/mL"}
{"structure": "COc1c(N2CCNC(C)C2)ccc2c(=O)c(C(=O)O)cn(C3CC3)c12", "strain or isolate": "R6", "value": "4 µg/mL"}
{"structure": "COc1c(N2C[C@@H]3CCCN[C@@H]3C2)ccc2c(=O)c(C(=O)O)cn(C3CC3)c12", "strain or isolate": "R6", "value": "0.5 µg/mL"}
{"structure": "CC[C@H]1OC(=O)[C@H](C)C(=O)[C@H](C)[C@@H](O[C@@H]2O[C@H](C)C[C@H](N(C)C)[C@H]2O)[C@@]2(C)C[C@@H](C)C(=NC(C)=O)[C@H](C)C(OC/C(=C\\C=C\\c3cccnc3)CO2)[C@]1(C)O", "strain or isolate": "49619 (erythromycin-susceptible)", "value": "<0.06 µg/mL"}
{"structure": "O=C(Nc1cccc(C2=NCCN2)c1)Nc1cccc(C2=NCCN2)c1", "strain or isolate": "STP6301", "value": "60 µM"}